Anti-infective test results gathered from many reports (values: NIAID ChemDB through PubChem).

All rows: enzyme or target tests; organism: HIV-1; protein: Protease; measure: IC50

ICn is the concentration giving n% inhibition.

{"smiles": "NC(=O)C[C@H](N)C(=O)N[C@@H](Cc1ccccc1)[C@@H](O)C(=O)NCC1CCCCC1", "value": ">1000 µM"}
{"smiles": "CC(C)[C@H](NC(=O)[C@H](C)NS(=O)(=O)c1ccc([N+](=O)[O-])cc1)C(=O)N[C@@H](Cc1ccccc1)C(O)C(O)[C@H](Cc1ccccc1)NC(=O)[C@@H](NC(=O)[C@H](C)NS(=O)(=O)c1ccc([N+](=O)[O-])cc1)C(C)C", "value": "0.079 µM"}
{"smiles": "CC(C)[C@H](NC(=O)[C@H](C)NC(=O)OCc1ccccc1)C(=O)N[C@@H](Cc1ccccc1)[C@@H](O)[C@H](O)[C@H](Cc1ccccc1)NC(=O)[C@@H](NC(=O)[C@H](C)NC(=O)OCc1ccccc1)C(C)C", "value": "0.004 µM"}
{"smiles": "COc1cccc(OC)c1OCC(=O)N[C@@H](Cc1ccccc1)[C@@H](O)C[C@H](Cc1ccccc1)NC(=O)[C@H](C(C)C)N1CCCNC1=O", "value": ">0.0005 µM"}
{"smiles": "CC(C)(C)OC(=O)N[C@@H](Cc1ccccc1)C(=O)N[C@@H](CO)C(=O)N[C@@H](Cc1ccccc1)[C@H](O)C(=O)NCC1CCCCC1", "value": "~1000 µM"}
{"smiles": "Cc1cn([C@@H]2C[C@@H](N=[N+]=[N-])[C@H](COC(=O)CCCC(=O)N[C@@H](Cc3ccccc3)[C@H](O)C(=O)N3CSC[C@H]3C(=O)NC(C)(C)C)O2)c(=O)[nH]c1=O", "value": ">5 µM"}
{"smiles": "CC[C@H](C)[C@H](NC(=O)[C@@H]1CCCN1C(=O)[C@H](O)[C@H](Cc1ccccc1)NC(=O)[C@H](CC(N)=O)NC(=O)CCc1ccccc1)C(=O)N[C@H](C(N)=O)C(C)C", "value": "<5 µM"}
{"smiles": "Cc1ccccc1CNC(=O)[C@@H]1CSCN1C(=O)[C@@H](O)[C@H](Cc1ccccc1)NC(=O)CC(C)(C)C(=O)OC[C@@H]1O[C@H](n2cc(C)c(=O)[nH]c2=O)C[C@H]1N=[N+]=[N-]", "value": ">5 µM"}
{"smiles": "CC(C)C[C@H](NC(=O)OC(C)(C)C)C(=O)N[C@@H](Cc1ccccc1)C(=O)NC[C@@H]1O[C@@H](CNC(=O)[C@H](Cc2ccccc2)NC(=O)[C@@H](CC(C)C)NC(=O)OC(C)(C)C)[C@@H](O)[C@@H]1O", "value": ">2 µM"}
{"smiles": "O=C(N[C@H](Cc1ccc(O)c(-c2cc(C[C@@H](NC(=O)OCc3ccccc3)C(=O)O)ccc2O)c1)C(=O)O)OCc1ccccc1", "value": "24 µM"}
{"smiles": "CC(C)(C)OC(=O)N[C@@H](Cc1ccccc1)C(=O)N[C@@H](CC(N)=O)C(=O)N[C@@H](Cc1ccccc1)[C@@H](O)C(=O)NCC1CCCCC1", "value": "<1000 µM"}
{"smiles": "CC(C)[C@@H](C(=O)N[C@@H](Cc1ccccc1)C[C@H](O)[C@H](Cc1ccccc1)NC(=O)COc1c(Cl)cccc1Cl)N1CCCNC1=O", "value": "<0.0005 µM"}
{"smiles": "CC(C)[C@H](NC(=O)Oc1ccccc1)C(=O)N[C@@H](Cc1ccccc1)[C@@H](O)[C@H](O)[C@H](Cc1ccccc1)NC(=O)[C@@H](NC(=O)[C@H](C)NC(=O)Oc1ccccc1)C(C)C", "value": "0.017 µM"}
{"smiles": "CC(C)[C@@H](/C=C/C(=O)O)NC(=O)c1cc2ccccc2c(-c2c(O)c(C(=O)N[C@H](/C=C/C(=O)O)C(C)C)cc3ccccc23)c1O", "value": "13 µM"}
{"smiles": "CC(C)[C@H](NC(=O)[C@H](Cc1ccccc1)NC(=O)[C@@H]1O[C@@H](C(=O)N[C@@H](Cc2ccccc2)C(=O)N[C@H](C(=O)NCc2ccccn2)C(C)C)[C@@H](OCc2ccccc2)[C@@H]1OCc1ccccc1)C(=O)NCc1ccccn1", "value": ">2 µM"}
{"smiles": "Cc1ccnc(C)c1OCC(=O)N[C@@H](Cc1ccccc1)[C@@H](O)C[C@H](Cc1ccccc1)NC(=O)[C@H](C(C)C)N1CCCNC1=O", "value": "<0.0005 µM"}
{"smiles": "CON[C@H](C(=O)NC(=O)[C@H]1N(C[C@@H](O)[C@H](Cc2ccccc2)NC(=O)[C@@H](NC(=O)[C@H](C)NC(=O)Oc2ccccc2)C(C)C)CSC1(C)C)C(C)C", "value": "0.015 µM"}
{"smiles": "CC[C@@H](C)[C@H](NC(=O)[C@@H]1CCCN1C(=O)[C@@H](O)[C@H](CC1CCCCC1)NC(=O)[C@H](CSC)NC(=O)CCc1ccccc1)C(=O)N[C@H](C(N)=O)C(C)C", "value": ">5 µM"}
{"smiles": "COc1ccc(CSC[C@@H](NC(C)=O)C(=O)N[C@@H](CCc2ccccc2)[C@H](O)C(=O)N2CSC(C)(C)[C@H]2C(=O)NCc2ccccc2C)cc1", "value": "0.00018 µM"}
{"smiles": "COC(=O)[C@H](C)NC(=O)[C@H](CC(C)C)NC(=O)[C@H](Cc1ccccc1)NC(=O)[C@@H]1O[C@@H](C(=O)N[C@@H](Cc2ccccc2)C(=O)N[C@@H](CC(C)C)C(=O)N[C@@H](C)C(=O)OC)[C@@H](O)[C@@H]1O", "value": ">2 µM"}
{"smiles": "CC(C)(C)NC(=O)[C@@H]1CSCN1C(=O)[C@@H](O)[C@H](Cc1ccccc1)NC(=O)CC(C)(C)C(=O)O", "value": "<5 µM"}
{"smiles": "CC(=O)N[C@@H](CSC(=O)[C@]1([C@@H](O)CC(C)C)NC(=O)[C@H](C)[C@@H]1O)C(=O)O", "value": ">100 µM"}
{"smiles": "N=S(=O)(C[C@@H](Cc1ccccc1)C(=O)N[C@H]1c2ccccc2C[C@H]1O)C[C@H](Cc1ccccc1)C(=O)N[C@H]1c2ccccc2C[C@H]1O", "value": "0.0373 µM"}
{"smiles": "CC(CO)(CO)NC(=O)[C@@H]1CCCN1C(=O)[C@@H](O)[C@H](Cc1ccccc1)NC(=O)[C@H](CS(C)(=O)=O)NC(=O)COc1cccc2ccccc12", "value": ">0.05 µM"}
{"smiles": "O=c1oc(-c2ccccc2)cc(O)c1SCCCc1ccccc1", "value": "1.4 µM"}
{"smiles": "CC(C(=O)O)C(C)C(=O)N[C@@H](Cc1ccccc1)[C@H](O)C(=O)N1CSC[C@H]1C(=O)NC(C)(C)C", "value": "<5 µM"}
{"smiles": "CC(C)[C@H](NC(=O)OC(C)(C)C)C(=O)N[C@@H](Cc1ccccc1)C(=O)NC[C@H]1O[C@H](CNC(=O)[C@H](Cc2ccccc2)NC(=O)[C@H](NC(=O)OC(C)(C)C)C(C)C)[C@@H](O)[C@@H]1O", "value": ">2 µM"}
{"smiles": "O=C(N[C@H]1c2ccccc2C[C@H]1O)[C@H](CCc1ccccc1)CS(=O)C[C@H](CCc1ccccc1)C(=O)N[C@H]1c2ccccc2C[C@H]1O", "value": "0.0531 µM"}
{"smiles": "CC(C)[C@H](NC(=O)[C@H](C)NC(=O)OCc1ccccc1)C(=O)N[C@@H](Cc1ccccc1)[C@@H](O)[C@H](O)[C@H](Cc1ccccc1)NC(=O)[C@@H](NC(=O)[C@H](C)NC(=O)OCc1ccccc1)C(C)C", "value": "0.004 µM"}
{"smiles": "Cc1cccc(C)c1SCC(=O)N[C@@H](Cc1ccccc1)[C@@H](O)C[C@H](Cc1ccccc1)NC(=O)[C@H](C(C)C)N1CCCNC1=O", "value": "<0.0005 µM"}
{"smiles": "Cc1ccc(NC(=O)N[C@@H](C)C(=O)N[C@H](C(=O)N[C@@H](Cc2ccccc2)C(O)C(O)[C@H](Cc2ccccc2)NC(=O)[C@@H](NC(=O)[C@H](C)NC(=O)Nc2ccc(C)cc2)C(C)C)C(C)C)cc1", "value": "0.16 µM"}
{"smiles": "CC(C)(C)OC(=O)N[C@@H](Cc1ccccc1)[C@H](O)C(=O)N1CCC[C@H]1C(=O)NCC1CCCCC1", "value": "~1000 µM"}
{"smiles": "NC(=O)O[C@@H]1Cc2ccccc2[C@@H]1C1=CN[C@@](Cc2ccccc2)(C[C@H](O)[C@H](CCc2ccccc2)NC(=O)O[C@H]2CCOC2)C1=O", "value": "0.002 µM"}
{"smiles": "CC[C@@H](C)[C@H](NC(=O)CN(CC1CCCCC1)C(=O)[C@@H](O)[C@H](Cc1ccccc1)NC(=O)[C@H](CC(N)=O)NC(=O)OC(C)(C)C)C(=O)NCC1CCCCC1", "value": ">1000 µM"}
{"smiles": "COc1ccc(NC(=O)N[C@@H](C)C(=O)N[C@H](C(=O)N[C@@H](Cc2ccccc2)C(O)C(O)[C@H](Cc2ccccc2)NC(=O)[C@@H](NC(=O)[C@H](C)NC(=O)Nc2ccc(OC)cc2)C(C)C)C(C)C)cc1", "value": "0.014 µM"}

A second listing of 5 rows from above:

smiles | value
CC(C)(C)OC(=O)N[C@@H](Cc1ccccc1)[C@H](O)C(=O)N1CCC[C@H]1C(=O)NCC1CCCCC1 | ~1000 µM
CC(C)[C@@H](C(=O)N[C@@H](Cc1ccccc1)C[C@H](O)[C@H](Cc1ccccc1)NC(=O)COc1c(Cl)cccc1Cl)N1CCCNC1=O | <0.0005 µM
CC(C)(C)OC(=O)N[C@@H](Cc1ccccc1)C(=O)N[C@@H](CO)C(=O)N[C@@H](Cc1ccccc1)[C@H](O)C(=O)NCC1CCCCC1 | ~1000 µM
NC(=O)C[C@H](N)C(=O)N[C@@H](Cc1ccccc1)[C@@H](O)C(=O)NCC1CCCCC1 | >1000 µM
O=C(N[C@H]1c2ccccc2C[C@H]1O)[C@H](CCc1ccccc1)CS(=O)C[C@H](CCc1ccccc1)C(=O)N[C@H]1c2ccccc2C[C@H]1O | 0.0531 µM

Conditions beyond the fields shown may differ between rows.